Results of unrelated studies side by side (data: NIAID ChemDB).

Shared fields: tests on isolated targets

ICn: concentration for n% inhibition. Neighbouring rows are from separate reports. Inhibition is in % at the dose shown (toxicity tests: loss of growth or viability). An empty or dashed field is not shown. a–b is a range or a potency band.

smiles	target	tested at	organism	read-out	result
O=C(O)/C=C/c1ccc(NC(=O)C2(NC(=O)c3ccc4c(c3)nc(-c3cccs3)n4C3CCCCC3)CCCC2)cc1	NS5B polymerase		Hepatitis C virus	IC50	<0.5 µM
COc1nc(NCCO)nc(Nc2ccc3[nH]ncc3c2)n1	DNA polymerase	1 µg/mL	Hepatitis B virus	inhibition	55%
C[C@H](NC(=O)Nc1cccc(-c2nc(C(=O)O)c(O)c(=O)[nH]2)c1)c1ccccc1	HCV polymerase		Hepatitis C virus	IC50	<100 µM
COc1nc(NCCc2ccccn2)nc(Nc2ccc3[nH]ncc3c2)n1	DNA polymerase	0.01 µg/mL	Hepatitis B virus	inhibition	36%
CC(=O)c1cccc(NC(=O)Nc2cccc(-c3nc(C(=O)O)c(O)c(=O)[nH]3)c2)c1	HCV polymerase		Hepatitis C virus	IC50	<100 µM
O=C(O)c1ccc2c(c1)nc(-c1ccc3nc(-c4ccccc4-c4ccc(Cl)cc4)ccc3c1)n2C1CCCCC1	NS5B polymerase	33 µM	Hepatitis C virus	inhibition	99.05%
CC(NC(=O)c1ccc2c(c1)nc(-c1ccoc1)n2C1CCCCC1)C(=O)Nc1cccc(-c2ccc(O)cc2)c1	NS5B polymerase		Hepatitis C virus	IC50	5–25 µM
O=C(Nc1ccsc1-c1nc(C(=O)O)c(O)c(=O)[nH]1)c1ccccc1	HCV polymerase		Hepatitis C virus	IC50	<25 µM
COc1nc(Nc2ccc3[nH]ncc3c2)nc(N2CCCC2)n1	DNA polymerase	0.1 µg/mL	Hepatitis B virus	inhibition	23%
CSCCC(NC(=O)c1ccc2c(c1)nc(-c1cc3ncc(-c4ccccc4)nc3cc1F)n2C1CCCCC1)C(=O)O	NS5B polymerase	33 µM	Hepatitis C virus	inhibition	81.94%
CC[C@@H](C=O)NC(=O)[C@@H]1C[C@@H](OCc2c(C)noc2C)CN1C(=O)[C@@H](NC(=O)[C@@H](NC(=O)c1cnccn1)C(C)C)C(C)C	NS3 protease		Hepatitis C virus	Ki	1–100 µM
CNC(=O)c1c(-c2ccc(F)cc2)oc2cc(N(C(C)c3nn[nH]n3)S(C)(=O)=O)c(OC(C)C)cc12	Nonstructural protein 5B		Hepatitis C virus	IC50	≤0.5 µM
O=C(NC(Cc1cnc[nH]1)C(=O)O)c1ccc2c(c1)nc(-c1ccc3nc(-c4ccccc4)cnc3c1)n2C1CCCCC1	NS5B polymerase	33 µM	Hepatitis C virus	inhibition	66.78%
c1ccc(CNc2ccc(-c3c(C4CCCCC4)cnc4c(-c5nn[nH]n5)cnn34)cc2)cc1	RNA-dependent RNA polymerase		Hepatitis C virus	IC50	1–10 µM
CN(C)CCOC(=O)c1nc(-c2ccccc2NS(=O)(=O)c2ccc(Cl)c(Cl)c2Cl)[nH]c(=O)c1O	HCV polymerase		Hepatitis C virus	IC50	<50 µM
C[C@@H](NC(=O)c1ccc2c(c1)nc(-c1ccoc1)n2C1CCCCC1)C(=O)Nc1ccc(-c2ccc(C(=O)O)o2)cc1	NS5B polymerase		Hepatitis C virus	IC50	<0.5 µM
CC[C@@H](C=O)NC(=O)[C@@H]1C[C@@H](OCc2ccccc2)CN1C(=O)[C@@H](NC(=O)[C@H](CCc1ccccc1)NC(=O)c1cnccn1)C(C)C	NS3 protease		Hepatitis C virus	Ki	1–100 µM
COc1nc(Nc2ccc3cn[nH]c3c2)nc(NN2CCN(C)CC2)n1	DNA polymerase		Hepatitis B virus	IC50	0.1–1 µg/mL
CC(C)c1c(-c2ccc(OCc3ccccc3)cc2)cnc2cc(C(=O)O)nn12	RNA-dependent RNA polymerase		Hepatitis C virus	IC50	>10 µM
CC[C@@H](C=O)NC(=O)[C@@H]1C[C@@H](OCc2ccccc2)CN1C(=O)[C@@H](NC(=O)c1c(C)cc(C)cc1C)C(C)C	NS3 protease		Hepatitis C virus	Ki	>100 µM
COC(=O)c1cnn2c(-c3cccc(Oc4ccccc4)c3)c(-c3ccccc3)cnc12	RNA-dependent RNA polymerase		Hepatitis C virus	IC50	>10 µM
CC[C@@H](C=O)NC(=O)[C@@H]1C[C@@H](OC(=O)Nc2ccccc2-c2ccccc2)CN1C(=O)[C@@H](NC(=O)[C@@H](NC(=O)c1cnccn1)C(C)C)C(C)C	NS3 protease		Hepatitis C virus	Ki	1–100 µM
CCOC(=O)c1cnn2c(-c3ccc(OCc4ccccc4)cc3)c(-c3ccccc3)cnc12	RNA-dependent RNA polymerase		Hepatitis C virus	IC50	>10 µM
Cc1cc(NC(=O)C2(NC(=O)c3ccc4c(c3)nc(-c3ccoc3)n4C3CCCCC3)CCCC2)ccc1/C=C/C(=O)O	NS5B polymerase		Hepatitis C virus	IC50	<0.5 µM
COc1nc(Nc2ccc3[nH]ncc3c2)nc(N2CCC(C(N)=O)CC2)n1	DNA polymerase		Hepatitis B virus	IC50	0.1–1 µg/mL
O=C(O)/C=C/c1ccc(NC(=O)CNC(=O)c2ccc3c(c2)nc(-c2ccoc2)n3C2CCCCC2)cc1	NS5B polymerase		Hepatitis C virus	IC50	<0.5 µM
COc1ccc(-c2ccc(Cl)cc2)c(-c2ccc3cc(-c4nc5cc(C(=O)O)ccc5n4Cc4ccccc4)ccc3n2)c1	NS5B polymerase	33 µM	Hepatitis C virus	inhibition	101%
CNC(=O)c1c(-c2ccc(F)cc2)oc2cc(S(=O)(=O)N3CCCC3)c(OC(C)C)cc12	Nonstructural protein 5B		Hepatitis C virus	IC50	≤0.5 µM
COc1ccccc1-c1cc(-c2ccc(Cl)cc2)nc2cc(C(=O)O)nn12	RNA-dependent RNA polymerase		Hepatitis C virus	IC50	>10 µM
O=C(NCc1cn2ccccc2n1)Nc1cscc1-c1nc(C(=O)O)c(O)c(=O)[nH]1	HCV polymerase		Hepatitis C virus	IC50	<25 µM
CNC(=O)c1c(-c2ccc(F)cc2)oc2cc(OC)c(OC(C)C)cc12	Nonstructural protein 5B		Hepatitis C virus	IC50	≤0.5 µM
O=C(O)c1ccc2c(c1)nc(-c1ccc3nc(-c4cc(Cl)ccc4-c4ccc(Cl)cc4)ccc3c1)n2C1CCCCC1	NS5B polymerase	33 µM	Hepatitis C virus	inhibition	101%
COc1nc(Nc2ccc3[nH]ncc3c2)nc(N2CCN(C)CC2)n1	Nonstructural protein 5B	0.1 µg/mL	Hepatitis C virus	inhibition	12%
CNC(=O)c1c(-c2ccc(F)cc2)oc2cc(-c3cc(C4CC4)on3)c(OC(C)C)cc12	Nonstructural protein 5B		Hepatitis C virus	IC50	≤0.5 µM
O=C(O)c1nc(-c2cc(F)cc(F)c2)[nH]c(=O)c1O	HCV polymerase		Hepatitis C virus	IC50	<100 µM
O=C(O)c1c[nH]n2c(=O)c(CC3CCCCC3)c(-c3ccc(OCc4ccccc4)cc3)nc12	RNA-dependent RNA polymerase		Hepatitis C virus	IC50	1–10 µM
CCn1c(C(=O)O)cc2cc(NC(=O)C3(NC(=O)c4ccc5c(c4)nc(-c4ccoc4)n5C4CCCCC4)CCCC3)ccc21	NS5B polymerase		Hepatitis C virus	IC50	<0.5 µM
O=C(O)c1ccc2c(c1)nc(-c1ccc3nc(-c4cc[nH]c4)ccc3c1)n2C1CCCCC1	NS5B polymerase	100 µM	Hepatitis C virus	inhibition	96.37%
O=C(COc1ccc(Cl)cc1Cl)Nc1ccsc1-c1nc(C(=O)O)c(O)c(=O)[nH]1	HCV polymerase		Hepatitis C virus	IC50	<25 µM
NC(N)=NCCCC(NC(=O)c1ccc2c(c1)nc(-c1cc3ncc(-c4ccccc4)nc3cc1F)n2C1CCCCC1)C(=O)O	NS5B polymerase	33 µM	Hepatitis C virus	inhibition	87.14%
O=C(O)c1cc2nc(-c3ccc(Cl)cc3)cc(-c3ccc(Oc4ccccc4)cc3)n2n1	RNA-dependent RNA polymerase		Hepatitis C virus	IC50	1–10 µM
O=C(NC(Cc1c[nH]c2ccc(O)cc12)C(=O)O)c1ccc2c(c1)nc(-c1ccc3cc(-c4ccccc4)cnc3c1)n2C1CCCCC1	NS5B polymerase	33 µM	Hepatitis C virus	inhibition	99.3%
COc1nc(Nc2ccc3[nH]ncc3c2)nc(N2CCOCC2)n1	Nonstructural protein 5B	0.1 µg/mL	Hepatitis C virus	inhibition	43%

The first 5 rows once more:

{"smiles": "O=C(O)/C=C/c1ccc(NC(=O)C2(NC(=O)c3ccc4c(c3)nc(-c3cccs3)n4C3CCCCC3)CCCC2)cc1", "target": "NS5B polymerase", "organism": "Hepatitis C virus", "read-out": "IC50", "result": "<0.5 µM"}
{"smiles": "COc1nc(NCCO)nc(Nc2ccc3[nH]ncc3c2)n1", "target": "DNA polymerase", "tested at": "1 µg/mL", "organism": "Hepatitis B virus", "read-out": "inhibition", "result": "55%"}
{"smiles": "C[C@H](NC(=O)Nc1cccc(-c2nc(C(=O)O)c(O)c(=O)[nH]2)c1)c1ccccc1", "target": "HCV polymerase", "organism": "Hepatitis C virus", "read-out": "IC50", "result": "<100 µM"}
{"smiles": "COc1nc(NCCc2ccccn2)nc(Nc2ccc3[nH]ncc3c2)n1", "target": "DNA polymerase", "tested at": "0.01 µg/mL", "organism": "Hepatitis B virus", "read-out": "inhibition", "result": "36%"}
{"smiles": "CC(=O)c1cccc(NC(=O)Nc2cccc(-c3nc(C(=O)O)c(O)c(=O)[nH]3)c2)c1", "target": "HCV polymerase", "organism": "Hepatitis C virus", "read-out": "IC50", "result": "<100 µM"}